Molecular target: T1, S protein of MERS-CoV (MERS-CoV, UniProt K9N5Q8 18-1296)
T1 sequence: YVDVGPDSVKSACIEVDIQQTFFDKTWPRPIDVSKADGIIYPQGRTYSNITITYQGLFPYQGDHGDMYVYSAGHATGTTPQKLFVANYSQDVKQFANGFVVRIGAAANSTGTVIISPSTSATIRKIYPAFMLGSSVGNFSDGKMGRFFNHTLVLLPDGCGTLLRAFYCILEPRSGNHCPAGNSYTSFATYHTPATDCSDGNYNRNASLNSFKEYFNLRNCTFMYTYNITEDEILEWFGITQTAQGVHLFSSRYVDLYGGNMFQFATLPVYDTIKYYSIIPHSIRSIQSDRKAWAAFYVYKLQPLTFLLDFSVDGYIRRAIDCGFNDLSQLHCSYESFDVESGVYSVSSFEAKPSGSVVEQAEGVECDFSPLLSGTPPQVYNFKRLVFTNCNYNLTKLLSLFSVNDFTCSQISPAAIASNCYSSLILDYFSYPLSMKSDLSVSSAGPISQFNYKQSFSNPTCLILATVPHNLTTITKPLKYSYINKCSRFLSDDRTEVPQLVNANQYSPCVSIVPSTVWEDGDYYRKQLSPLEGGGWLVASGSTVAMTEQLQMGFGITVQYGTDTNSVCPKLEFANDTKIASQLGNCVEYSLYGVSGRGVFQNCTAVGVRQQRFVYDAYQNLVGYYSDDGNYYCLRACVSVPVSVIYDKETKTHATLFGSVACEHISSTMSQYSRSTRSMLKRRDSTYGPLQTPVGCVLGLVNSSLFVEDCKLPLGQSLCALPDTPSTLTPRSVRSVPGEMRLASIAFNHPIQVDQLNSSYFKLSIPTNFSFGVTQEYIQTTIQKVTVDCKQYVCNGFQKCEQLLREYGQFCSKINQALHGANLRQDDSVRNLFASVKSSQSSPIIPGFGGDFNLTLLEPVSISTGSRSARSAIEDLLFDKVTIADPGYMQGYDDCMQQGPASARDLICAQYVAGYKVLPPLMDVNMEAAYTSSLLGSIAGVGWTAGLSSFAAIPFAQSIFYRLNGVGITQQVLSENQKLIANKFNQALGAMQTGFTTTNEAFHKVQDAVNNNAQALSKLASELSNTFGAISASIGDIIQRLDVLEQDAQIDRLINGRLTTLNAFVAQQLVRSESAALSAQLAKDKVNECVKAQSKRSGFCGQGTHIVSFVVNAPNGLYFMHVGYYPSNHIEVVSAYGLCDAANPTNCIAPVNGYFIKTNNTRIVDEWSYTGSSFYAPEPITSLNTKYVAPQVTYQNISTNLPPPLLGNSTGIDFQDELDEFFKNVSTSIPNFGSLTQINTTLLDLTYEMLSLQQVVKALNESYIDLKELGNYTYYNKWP
Assay: BLI (Octet RED96): mAb on Protein A biosensors, S protein in solution [panel D]

B1: CoV2-12 (antibody, V domains shown)
VH: QVQLVESGGGVVQPGRSLRLSCVASGFTFSSYAMQWVRQAPGKGLEYVAVVSDDGNMKFYADSVKGRFTISRDNSRNTVSLQMNSLGVEDTAVYYCARENYFWSGSIGGLDYWGQGTLVSVSS
VL: not shown
  binding result: no binding

— patent US20230399384A1 (University of Texas, published 2023)
